PubChem BioAssay AID1224833, University of Georgia, 2016

Purpose: 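Human genes whose knock-down alters rotavirus replication in monkey cells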 (primary screen)
Cells: monkey MA104 kidney cells
Reagent: siRNA pool against human genes, 50 nM
Duration: 48 h knock-down before infection; read 24 h after infection
Treatment: infection with rotavirus strain RV3 two days after transfection; infectious dose for this stage not given
Measured: 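Rotavirus antigen per well by fluorescent immunoassay, normalised to non-targeting control wells on each plate and given as a standard z-score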
Direction: z-score vs non-targeting control: higher = more rotavirus replication than with non-targeting control
Hit rule: In these data the active calls have z-score vs non-targeting control at about -1 or lower, or at about 1 or higher
Meaning of the calls: active = z-score beyond 1 either way; inactive = z-score within 1 of zero
Here is an unselected part of about 12,000 deposited reagents. About 5,600 of them (46%) were called active. 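Active calls cover z-scores past 1 in both directions, so they include lowered as well as raised rotavirus replication.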 Entries without a mark were called inactive.

target | z-score vs non-targeting control
SRM (spermidine synthase) | -0.793
HSPBP1 (HSPA (Hsp70) binding protein 1) | 0.168
RPE (ribulose-5-phosphate-3-epimerase) | -1.11 (active)
LENG9 (leukocyte receptor cluster member 9) | -0.0496
CPA2 (carboxypeptidase A2) | 0.841
OR1D5 (olfactory receptor family 1 subfamily D member 5) | 0.0374
POU2AF2 (POU class 2 homeobox associating factor 2) | 1.84 (active)
TIPARP (TCDD inducible poly(ADP-ribose) polymerase) | -1.21 (active)
HSF2BP (heat shock transcription factor 2 binding protein) | -0.197
PGLYRP3 (peptidoglycan recognition protein 3) | 1.95 (active)
RUNDC3A (RUN domain containing 3A) | 0.231
MCCC1 (methylcrotonyl-CoA carboxylase subunit 1) | -1.85 (active)
MBP (myelin basic protein) | 1.03 (active)
EMID1 (EMI domain containing 1) | 0.112
SPTY2D1 (SPT2 chromatin protein domain containing 1) | 1.37 (active)
CHMP1A (charged multivesicular body protein 1A) | 0.719
DOCK2 (dedicator of cytokinesis 2) | -1.06 (active)
CES3 (carboxylesterase 3) | -1.89 (active)
HHIP (hedgehog interacting protein) | 0.367
NPAS4 (neuronal PAS domain protein 4) | -2.39 (active)
ZNF514 (zinc finger protein 514) | 1.02 (active)
PAXIP1 (PAX interacting protein 1) | 0.297
C3 (complement C3) | -1.61 (active)
GGT2P (gamma-glutamyltransferase 2, pseudogene) | -0.712
GCNA (germ cell nuclear acidic peptidase) | 0.623
OR51E2 (olfactory receptor family 51 subfamily E member 2) | -0.572
CPA5 (carboxypeptidase A5) | 1.4 (active)
CLDN19 (claudin 19) | -1 (active)
ANO1 (anoctamin 1) | 0.757
NEFL (neurofilament light chain) | 0.943
ASPM (assembly factor for spindle microtubules) | 0.206
FAM167A (family with sequence similarity 167 member A) | -0.404
TMEM9B (TMEM9 domain family member B) | 0.405
CHRD (chordin) | 0.162
DNMT3B (DNA methyltransferase 3 beta) | -0.782
HAUS8 (HAUS augmin like complex subunit 8) | 0.513
TOMM22 (translocase of outer mitochondrial membrane 22) | 1.2 (active)
PRRT1 (proline rich transmembrane protein 1) | -1.78 (active)
STIM1 (stromal interaction molecule 1) | -0.153
TTC21A (tetratricopeptide repeat domain 21A) | -1.59 (active)
SPECC1 | -1.54 (active)
UBL3 (ubiquitin like 3) | -5.68 (active)
TCERG1L (transcription elongation regulator 1 like) | 0.704
SNX25 (sorting nexin 25) | -1.36 (active)
ARID5A (AT-rich interaction domain 5A) | -1.37 (active)
SH3BGR (SH3 domain binding glutamate rich protein) | -0.541
JOSD2 (Josephin domain containing 2) | 2.3 (active)
NIT1 (nitrilase 1) | -2.29 (active)
PUS7L (pseudouridine synthase 7 like) | -1.35 (active)
ZNF217 (zinc finger protein 217) | 0.0863
ITGB5 (integrin subunit beta 5) | -0.31
PCDHGA9 (protocadherin gamma subfamily A, 9) | 0.193
SMOC2 (SPARC related modular calcium binding 2) | -1.41 (active)
PGBD5 (piggyBac transposable element derived 5) | -0.225
PDE6H (phosphodiesterase 6H) | 1.13 (active)
ARHGDIB (Rho GDP dissociation inhibitor beta) | -0.67
TACC2 (transforming acidic coiled-coil containing protein 2) | 0.279
COX15 (cytochrome c oxidase assembly factor COX15) | 1.3 (active)
TTC13 (tetratricopeptide repeat domain 13) | 1.07 (active)
CCL5 (C-C motif chemokine ligand 5) | -0.803
UPK3A (uroplakin 3A) | -0.868
LILRA3 (leukocyte immunoglobulin like receptor A3) | -0.848
GNB5 (G protein subunit beta 5) | -2.01 (active)
SPTLC3 (serine palmitoyltransferase long chain base subunit 3) | 0.579
FETUB (fetuin B) | 1.9 (active)
AEBP2 (AE binding protein 2) | -0.738
RAB24 (RAB24, member RAS oncogene family) | -1.69 (active)
OR5H6 (olfactory receptor family 5 subfamily H member 6) | 0.113
TMEM108 (transmembrane protein 108) | -0.554
RTN1 (reticulon 1) | -0.885
NDNF (neuron derived neurotrophic factor) | 1.73 (active)
SPAG17 (sperm associated antigen 17) | -1.89 (active)
RPA1 (replication protein A1) | 1.99 (active)
LHX4 (LIM homeobox 4) | -1.75 (active)
CCDC42 (coiled-coil domain containing 42) | 1.51 (active)
USP36 (ubiquitin specific peptidase 36) | -0.751
PELP1 (proline, glutamate and leucine rich protein 1) | -1.49 (active)
EPS8 (EGFR pathway substrate 8, signaling adaptor) | -1.38 (active)
IGSF21 (immunoglobin superfamily member 21) | -1.63 (active)
GBP7 (guanylate binding protein 7) | 0.732
STX2 (syntaxin 2) | 1.02 (active)
AGAP6 (ArfGAP with GTPase domain, ankyrin repeat and PH domain 6) | -1.89 (active)
SDHA (succinate dehydrogenase complex flavoprotein subunit A) | 0.615
LYZL1 (lysozyme like 1) | 2.31 (active)
CRYM (crystallin mu) | -0.698
BMP1 (bone morphogenetic protein 1) | 1.01 (active)
EDC4 (enhancer of mRNA decapping 4) | 1.39 (active)
PAFAH2 (platelet activating factor acetylhydrolase 2) | 1.81 (active)
WDR62 (WD repeat domain 62) | 3.04 (active)
NLRP7 (NLR family pyrin domain containing 7) | 1.04 (active)
LRCH3 | -1.37 (active)
REEP1 (receptor accessory protein 1) | -0.607
ASPSCR1 (ASPSCR1 tether for SLC2A4, UBX domain containing) | 0.21
ST18 (ST18 C2H2C-type zinc finger transcription factor) | -0.872
EXOC6 (exocyst complex component 6) | -0.508
HOXC13 (homeobox C13) | -1.18 (active)
NAMPT (nicotinamide phosphoribosyltransferase) | -1.88 (active)
SATB1 (SATB homeobox 1) | 0.644
RCOR1 (REST corepressor 1) | -1.61 (active)
OR2A14 (olfactory receptor family 2 subfamily A member 14) | -0.513
MIS12 (MIS12 kinetochore complex component) | 0.118
MR1 (major histocompatibility complex, class I-related) | 0.471
DALRD3 (DALR anticodon binding domain containing 3) | -1.81 (active)
PMP22 (peripheral myelin protein 22) | -0.776
NUDT18 (nudix hydrolase 18) | -2.48 (active)
RBMY1D (RNA binding motif protein Y-linked family 1 member D) | -3.22 (active)
DHDH (dihydrodiol dehydrogenase) | -0.62
LAX1 (lymphocyte transmembrane adaptor 1) | 1.32 (active)
C6orf118 (chromosome 6 open reading frame 118) | -0.787
TAS2R40 (taste 2 receptor member 40) | -0.854
ZZEF1 (zinc finger ZZ-type and EF-hand domain containing 1) | 1.32 (active)
INHBE (inhibin subunit beta E) | -0.878
ARFIP2 (ARF interacting protein 2) | -0.797
TSC22D2 (TSC22 domain family member 2) | -0.954
INTS15 (integrator complex subunit 15) | 4.16 (active)
OR4F6 (olfactory receptor family 4 subfamily F member 6) | -0.606
LIME1 (Lck interacting transmembrane adaptor 1) | 0.34
DENND6A (DENN domain containing 6A) | -0.543
CPNE7 (copine 7) | -1.2 (active)
ELF1 (E74 like ETS transcription factor 1) | 0.239
NETO1 (neuropilin and tolloid like 1) | -0.852
TECR (trans-2,3-enoyl-CoA reductase) | -0.15
SACK1D (scaffolding CK1 anchoring protein D) | -0.927
DZANK1 (double zinc ribbon and ankyrin repeat domains 1) | 1.02 (active)
NPY4R (neuropeptide Y receptor Y4) | -0.884
SGMS1 (sphingomyelin synthase 1) | 0.888
GFRA1 (GDNF family receptor alpha 1) | -1.1 (active)
OR6T1 (olfactory receptor family 6 subfamily T member 1) | -0.198
TTC22 (tetratricopeptide repeat domain 22) | 0.721
TMEM178A (transmembrane protein 178A) | 1.76 (active)
FOXN4 (forkhead box N4) | -3.2 (active)
GP2 (glycoprotein 2) | 0.0045
CD151 (CD151 molecule (Raph blood group)) | 1.04 (active)
GPR37L1 (G protein-coupled receptor 37 like 1) | 1.53 (active)
TRAPPC6B (trafficking protein particle complex subunit 6B) | -2.65 (active)
AKR1E2 (aldo-keto reductase family 1 member E2) | -0.881
VPS9D1 (VPS9 domain containing 1) | 0.614
ADGRV1 (adhesion G protein-coupled receptor V1) | -0.606
AGTRAP (angiotensin II receptor associated protein) | -0.586
S100P (S100 calcium binding protein P) | 0.781
